Pooled drug test results. Numbers come from NIAID ChemDB, via PubChem.

Common to all: tests in culture; species: Herpes simplex virus 1; cells: BSC-1; measure: EC50

ECn is the concentration giving n% inhibition of infection, replication or growth. Conditions beyond the fields shown may differ between rows. Blank or dashed fields: not listed here.

compound	strain	method	value
Cn1cc(NC=O)cc1C(=O)Nc1cc(C(=O)Nc2cc(C(=O)Nc3cccc(C(=N)N)c3)n(C)c2)n(C)c1		plaque count	<200 µg/mL
Nc1nc2c(ncn2/C=C2\[C@H](CO)C2(F)F)c(=O)[nH]1			>100 µM
Cn1cc(NC(=O)c2cc(NC(=O)c3cc(NC=O)cn3C)cn2C)cc1C(=O)NCCC#N		plaque count	<200 µg/mL
N=c1ncn(CC2CCCCC2)c2nc[nH]c12		plaque count	>50 µg/mL
OC[C@H]1O[C@@H](c2c(Cl)[nH]c3cc(Cl)c(Cl)cc23)[C@H](O)[C@@H]1O		ELISA	>100 µM
Nc1ncnc2c1ncn2/C=C1/[C@H](CO)C1(F)F			>100 µM
N=c1ncn(Cc2ccccc2)c2nc[nH]c12		plaque count	>50 µg/mL
Cn1cc(NC(=O)c2cc(NC(=O)c3cc([N+](=O)[O-])cn3C)cn2C)cc1C(=O)NCC(=N)N		plaque count	<50 µg/mL
O=c1[nH]c(=O)n([C@H]2C[C@H](O)[C@@H](CO)O2)cc1/C=C/Br	KOS	cytopathic effect	0.02 µg/mL
COc1c(C#N)c2cc(Cl)c(Cl)cc2n1[C@@H]1O[C@H](CO)[C@@H](O)[C@H]1O		ELISA	20 µM
CCSCc1c(Cl)nc2cc(Cl)c(Cl)cn12	KOS	ELISA	>100 µM
OC[C@H]1O[C@@H](c2c(SCc3ccccc3)[nH]c3cc(Cl)c(Cl)cc23)[C@H](O)[C@@H]1O		ELISA	>100 µM
CN(C)c1c(C=O)c2cc(Cl)c(Cl)cc2n1[C@@H]1O[C@H](CO)[C@@H](O)[C@H]1O		ELISA	15 µM
C=CCOCc1c(Cl)nc2ccc(Cl)cn12	KOS	ELISA	45 µM
O=Cc1c(Cl)n([C@@H]2O[C@H](CO)[C@@H](O)[C@H]2O)c2cc(Cl)c(Cl)cc12		ELISA	40 µM
CCc1nc2c3c(cn([C@@H]4O[C@H](CO)[C@@H](O)[C@H]4O)c3n1)C(N)=NN2C	KOS	ELISA	>100 µM
CCn1cnc(=N)c2[nH]cnc21		plaque count	>50 µg/mL
COC(=O)[C@H](C)NP(=O)(OCC1C/C1=C/n1cnc2c(=O)[nH]c(N)nc21)Oc1ccccc1		ELISA	>100 µM
Nc1ccn([C@@H]2O[C@H](CO)[C@@H](O)[C@@H]2O)c(=O)n1	KOS	cytopathic effect	0.1 µg/mL
COC(=O)[C@H](C)NP(=O)(OC[C@H]1C/C1=C/n1cnc2c(OC)nc(N)nc21)Oc1ccccc1		ELISA	2 µM
CN1N=C(N)c2cn([C@@H]3O[C@H](CO)[C@@H](O)[C@H]3O)c3nc(-c4ccccc4)nc1c23	KOS	ELISA	>100 µM
CCCc1cn([C@H]2C[C@H](O)[C@@H](COP(=O)(O)O)O2)c(=O)[nH]c1=O	KOS	cytopathic effect	20 µg/mL
CC(CC(=N)N)NC(=O)c1cc(NC(=O)c2cc(NC(=O)c3cc(NC=O)cn3C)cn2C)cn1C		plaque count	>200 µg/mL
N#Cc1c(Cl)n([C@@H]2O[C@H](CO)[C@@H](O)[C@H]2O)c2cc(Cl)c(Cl)cc12		ELISA	15 µM
Nc1nc2c(ncn2/C=C2/CC2(CO)CO)c(=O)[nH]1		ELISA	50 µM
Cn1cc(NC(=O)c2cc(NC(=O)c3cc(NC=O)cn3C)cn2C)cc1C(=O)NCCC(=N)N		plaque count	<25 µg/mL
Cc1ccc(Cn2cnc(=N)c3[nH]cnc32)cc1		plaque count	>50 µg/mL
COC(=O)[C@H](C)NP(=O)(OC[C@@H]1C[C@]12C[C@@H]2n1cnc2c(N)ncnc21)Oc1ccccc1			7 µM
Cn1cc(NC=O)cc1C(=O)Nc1cc(C(=O)Nc2cc(C(=O)Nc3ccccc3C(=N)N)n(C)c2)n(C)c1		plaque count	<200 µg/mL
Nc1nc(=O)n([C@@H]2O[C@H](CO)[C@@H](O)[C@@H]2F)cc1I	KOS	cytopathic effect	0.2 µg/mL
CCCCNc1c(C=O)c2cc(Cl)c(Cl)cc2n1[C@@H]1O[C@H](CO)[C@@H](O)[C@H]1O		ELISA	15 µM
OCCCOCc1c(Cl)nc2ccc(Cl)cn12	KOS	ELISA	60 µM
CCc1cn([C@H]2C[C@H](O)[C@@H](CO)O2)c(=O)[nH]c1=O	KOS	cytopathic effect	3.9 µg/mL
Cn1cc(NC(=O)c2cc(NC(=O)c3cc([N+](=O)[O-])cn3C)cn2C)cc1C(=O)NCCC(=N)N		plaque count	<200 µg/mL
CN1N=C(N)c2cn([C@@H]3O[C@H](COP(=O)(O)O)[C@@H](O)[C@H]3O)c3ncnc1c23	KOS	ELISA	20 µM

The last 5 rows once more:

CCCCNc1c(C=O)c2cc(Cl)c(Cl)cc2n1[C@@H]1O[C@H](CO)[C@@H](O)[C@H]1O ; method: ELISA ; value: 15 µM
OCCCOCc1c(Cl)nc2ccc(Cl)cn12 ; strain: KOS ; method: ELISA ; value: 60 µM
CCc1cn([C@H]2C[C@H](O)[C@@H](CO)O2)c(=O)[nH]c1=O ; strain: KOS ; method: cytopathic effect ; value: 3.9 µg/mL
Cn1cc(NC(=O)c2cc(NC(=O)c3cc([N+](=O)[O-])cn3C)cn2C)cc1C(=O)NCCC(=N)N ; method: plaque count ; value: <200 µg/mL
CN1N=C(N)c2cn([C@@H]3O[C@H](COP(=O)(O)O)[C@@H](O)[C@H]3O)c3ncnc1c23 ; strain: KOS ; method: ELISA ; value: 20 µM